Laboratory results: PMC5618700 (Journal of Cellular and Molecular Medicine, 2017)

Target: T1, SrtAΔN81 (sortase A) (Streptococcus pneumoniae, UniProt A0A0H2ZM58)
T1 construct: gene srtA

Structure (SMILES): O=C(O[C@@H]1Cc2c(O)cc(O)cc2O[C@@H]1c1cc(O)c(O)c(O)c1)c1cc(O)c(O)c(O)c1 [epigallocatechin gallate]
- remaining enzyme activity (%): peptidase activity of SrtAΔN81 was significantly inhibited following pre‐incubation with EGCG
